Results as given in patent US20240158472A1, “FERRITIN VARIANTS WITH INCREASED STABILITY AND COMPLEXATION ABILITY” (Cellis AG, priority 2021, published 2024).

Test: Native PAGE gel after doxorubicin encapsulation and purification
Type: physicochemical
Conditions: after doxorubicin encapsulation, mutants carry added K54E, K72E, K87Q, K144E, C91S, C103S
Text: Native PAGE gel has been performed in order to check the size of the protein after encapsulation and purification. […] A greater degree of aggregation adversely affects the loading efficiency and protein recovery after loading with doxorubicin (FIG. 3).

With “WT: human wild-type heavy chain ferritin (SEQ ID NO. 1)” the “forms on native gel (aggregates versus 24-mers)” value (listed as wild type ferritin) was “mainly forms of double glued frames, aggregates of cages and larger forms of aggregates” and the “forms on native gel (aggregates versus 24-mers)” value (listed as wild type protein) was “heterogeneity of forms”.
